The values below are quoted from earlier work in article PMC3811480, “The R Enantiomer of the Antitubercular Drug PA-824 as a Potential Oral Treatment for Visceral Leishmaniasis” (Antimicrobial Agents and Chemotherapy, 2013).

For this series, the system named is lab-generated strains of nifurtimox-resistant T. brucei. Conditions: cited from earlier work.

With `O=[N+]([O-])c1cn2c(n1)OC[C@@H](OCc1ccc(OC(F)(F)F)cc1)C2` [(S)-PA-824, reference compound], the “sensitivity of nifurtimox-resistant T. brucei” value is “no change in sensitivity”.
